Data taken from paper PMC4253628, “Antiviral effects against EV71 of pimprinine and its derivatives isolated from Streptomyces sp” (Virology Journal, 2014).

Tests used:
ADV-7 = assay: Inhibition of ADV-7-induced CPE in HeLa cells; settings: from Table 2
CVB3 = assay: Inhibition of CVB3-induced CPE in Hep-2 cells; settings: from Table 2

With CCCc1ncc(-c2c[nH]c3ccccc23)o1 [WS-30581 A] the “fold more active than ribavirin against ADV-7” value (ADV-7) was “approximately 7 fold” and the “fold more active than ribavirin against CVB3” value (CVB3) was “approximately 7 fold”.

CCCCc1ncc(-c2c[nH]c3ccccc23)o1 [WS-30581 B] was tested, and the “fold more active than ribavirin against ADV-7” value (ADV-7) was “approximately 7 fold” and the “fold more active than ribavirin against CVB3” value (CVB3) was “approximately 7 fold”.
